Test results reported in PubChem BioAssay (NCATS).
The entries are a selection whose mix differs from that of the whole data set. Records with an inconclusive call do not appear. The source made the active and inactive calls. Calls come from the whole dose curve; as a rule, active = well fitted inhibition curve with a large enough effect; inconclusive = small, poorly fitted or top-dose-only effect; inactive = flat fitted curve, though single readings scatter.

Legend:
Experiment in all cases: qHTS profiling for inhibitors of Plasmodium falciparum proliferation (AID 504749);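 note: 0% = DMSO vehicle and full inhibition = artemisinin control; nearly all actives have a fitted effect of over 60% in size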
Conditions in all cases: P. falciparum in erythrocytes, SYBR Green DNA, 72 h; at 28.7 µM (top of the series)
CP286 = test system: CP286
Outline: (§1)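 P. falciparum-infected erythrocytes (0.3% parasitemia, 2.5% hematocrit) incubated with compound 72 h at 37 C, 5% CO2. Parasite DNA detected by SYBR Green after lysis, overnight at room temperature; normalised to 0.29 uM artemisinin and DMSO.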

CP291 = test system: CP291
Outline: as §1

CP297 = test system: CP297
Outline: as §1

CP305 = test system: CP305
Outline: as §1

CP315 = test system: CP315
Outline: as §1

CP325 = test system: CP325
Outline: as §1

CP329 = test system: CP329
Outline: as §1

CP335 = test system: CP335
Outline: as §1

DFO2036 = test system: DFO2036
Outline: as §1

DIV14 = test system: DIV14
Outline: as §1

DIV17 = test system: DIV17
Outline: as §1

DIV30 = test system: DIV30
Outline: as §1

Dd2 = test system: Dd2
Outline: as §1

ECU = test system: ECU
Outline: as §1

FAB9 = test system: FAB9
Outline: as §1

GB4 = test system: GB4
Outline: as §1

HB3 = test system: HB3
Outline: as §1

ICS = test system: ICS
Outline: as §1

JCK = test system: JCK
Outline: as §1

N140 = test system: N140
Outline: as §1

P93_24 = test system: P93_24
Outline: as §1

P94_40 = test system: P94_40
Outline: as §1

PAD = test system: PAD
Outline: as §1

PC15 = test system: PC15
Outline: as §1

PC26 = test system: PC26
Outline: as §1

PC49 = test system: PC49
Outline: as §1

SC27B = test system: SC27B
Outline: as §1

TAB109 = test system: TAB109
Outline: as §1

TAB113 = test system: TAB113
Outline: as §1

TAB165 = test system: TAB165
Outline: as §1

W2 = test system: W2
Outline: as §1

Measured: activity, negative = inhibition

O=C(OC1CN2CCC1CC2)c1ccccc1 (stereo unspecified)
inactive: CP286 = 0.948% | CP291 = -0.505% | CP297 = -1.89% | CP305 = -8.6% | CP315 = -5.55% | CP325 = 9.51% | CP329 = -0.4% | CP335 = 2.51% | DFO2036 = -9.78% | DIV14 = -27.2% | DIV17 = -20.2% | DIV30 = -4.63% | Dd2 = -9.15% | ECU -5.55% | FAB9 = -0.0515% | GB4 = -14.1% | HB3 = -12% | ICS -3.29% | JCK -8.57% | N140 = 4.86% | P93_24 = -1.29% | P94_40 = -1.56% | PAD -1.07% | PC15 = -5.69% | PC26 = -2.13% | PC49 = -7.61% | SC27B 2.44% | TAB109 = -12.4% | TAB113 = 11.1% | TAB165 = 0.462% | W2 = 0.282%
